Source: PubChem BioAssay AID504761 (Drosophila RNAi Screening Center, 2011)
The screen tested about 22,000 reagents; shown is an unselected part of those that have a named target and a result. Over the whole deposit, 116 (0.52%) were called active. 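Calls depend on retest data that are not deposited; infection was ranked per plate without normalising between plates; the unit of the infection score is not given.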 Raw values are not corrected between plates. Unmarked entries are inactive. Not stated in the record: the amount of reagent, the time to read-out.

Screen: 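Genome-wide fly cell screen for genes dengue virus requires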 (primary screen)
Cell system: D.Mel-2 cells from Drosophila
Knock-down reagent: long dsRNA against Drosophila genes
Treatment: infection with dengue virus type 2; dose and infection time not stated
Read-out: 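Per well on two replicate plates, imaging gave the percent of cells positive for viral envelope protein, ranked by infection, and a nuclear count of cells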
Direction: infection score: higher = more virus-infected cells; cell count: higher = more cells in the well
Rule for the call: 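Very low infection ranking in both replicate wells (chance probability at most 0.065), then a retest showing infection dropped 1.5-fold or more at p below 0.05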
Meaning of the calls: active = confirmed: knock-down lowers infection; inactive = not picked or not confirmed

| target | dsRNA | infection score, replicate 1 | infection score, replicate 2 | cell count, replicate 1 | cell count, replicate 2 |
| --- | --- | --- | --- | --- | --- |
| mmd | DRSC19673 | 2.29 | 0.81 | 6255 | 6583 |
| mmd | DRSC20161 | 9 | 2.73 | 6235 | 6861 |
| mmd | DRSC23042 | 4.11 | 3.76 | 5937 | 6189 |
| CG7016 | DRSC16174 | – | – | 300 | 293 |
| corn | DRSC11021 | 19.2 | 19.1 | 5275 | 5352 |
| corn | DRSC21943 | 1.86 | 12 | 6873 | 4549 |
| corn | DRSC27306 | 21.1 | 5.43 | 5536 | 5616 |
| CG13331 | DRSC06366 | 0.17 | 9.26 | 577 | 2236 |
| Ptx1 | DRSC16804 | 2.75 | 4.59 | 6370 | 6815 |
| Ptx1 | DRSC25321 | 0.73 | 10.2 | 6982 | 6212 |

A few values from the entries so far.
Under “cell count, replicate 2”, CG13331 [DRSC06366] is entered as 2236
Entry for corn [DRSC11021] under “cell count, replicate 2”: 5352

Next results follow:
| target | dsRNA | infection score, replicate 1 | infection score, replicate 2 | cell count, replicate 1 | cell count, replicate 2 |
| --- | --- | --- | --- | --- | --- |
| Aatf | DRSC02131 | 14.8 | 8.85 | 4877 | 5749 |
| Aatf | DRSC29405 | – | 1.1 | 354 | 546 |
| CG16879 (retired record) | DRSC01918 | 9.32 | 14.8 | 5947 | 6647 |
| CG16879 (retired record) | DRSC22849 | 2.17 | 2.16 | 6141 | 6530 |
| Or98b | DRSC16775 | 6.98 | 0.29 | 6248 | 343 |
| Or98b | DRSC21751 | 5.22 | 11.5 | 6318 | 5417 |
| CG14662 | DRSC12248 | 5.22 | 7.3 | 6824 | 6521 |
| l(1)G0020 | DRSC18198 | 11.8 | 6.08 | 5442 | 5392 |
| Gycbeta100B | DRSC14039 | 0.88 | 0.25 | 6605 | 6374 |
| Gycbeta100B | DRSC14040 | 2.65 | 0.15 | 5920 | 5988 |
| Gycbeta100B | DRSC16691 | 1.17 | 4.99 | 5986 | 6111 |
| Gycbeta100B | DRSC28797 | 16 | 3.96 | 3671 | 1618 |
| Asator | DRSC17136 | 2.22 | 2.74 | 6496 | 6131 |
